Compound potency records, mixed from different reports. Data source: NIAID ChemDB in PubChem.

All rows: tests in culture; species: Epstein-Barr virus; measure: EC50

Rows are shuffled and stem from different studies. ECn: concentration that inhibits the pathogen or its effect by n%. Blank or dashed fields: not listed here.

smiles,strain,cell line,read by,value
Nc1ncnc2ncn(/C=C3/C(F)C3(CO)CO)c12,-,Akata,hybridisation,97.3 µM
Nc1nc(Cl)c2ncn(/C=C3/C[C@H]3CO)c2n1,-,H-1,ELISA,0.7 µM
O=C(NCc1ccc(Cl)cc1)c1cn(N2CCOCC2)c2ccc(CN3CCOCC3)cc2c1=O,-,HFF,plaque count,0.2 µM
CSc1nc(N)nc2c1ncn2/C=C1/C[C@@H]1CO,-,Akata,hybridisation,2.3 µM
COC(c1cn([C@H]2C[C@H](O)[C@@H](CO)O2)c(=O)[nH]c1=O)C(Cl)Br,P3HR-1,RAJI,plaque count,>25 µM
Nc1nc2c(ncn2COC(CO)CO)c(=O)[nH]1,-,H-1,-,<5 µM
Nc1nc2c(ncn2/C=C2/CC2[C@H](O)CO)c(=O)[nH]1,-,Akata,hybridisation,>20 µM
CCCCOc1nc(N)nc2c1ncn2/C=C1/C[C@@H]1CO,-,Akata,hybridisation,6.6 µM
COC(C)c1cn([C@H]2C[C@H](O)[C@@H](CO)O2)c(=O)[nH]c1=O,P3HR-1,HFF,cytopathic effect,12.1 µM
Cc1cn([C@H]2O[C@@H](CO)[C@H](O)[C@H]2F)c(=O)[nH]c1=O,-,H-1,-,5 µM
COC(c1cn([C@H]2C[C@H](O)[C@@H](CO)O2)c(=O)[nH]c1=O)C(Cl)I,P3HR-1,RAJI,plaque count,>214 µM
Nc1nc2c(ncn2[C@H]2C[C@@H](O)[C@H](O)[C@@H]2O)c(=O)[nH]1,-,DAUDI,antigen,>50 µg/mL
Nc1ncc2c(ncn2/C=C2\CC2CO)n1,-,-,ELISA,>100 µM
Nc1nc2c(ncn2/C=C2/CC2(CO)CO)c(=O)[nH]1,-,H-1,hybridisation,>20 µM
COC(=O)C(C)NP(=O)(OC[C@@H]1C/C1=C\n1cc(N)c(=O)[nH]c1=O)Oc1ccccc1,-,H-1,hybridisation,12 µM
Nc1nc2c(ncn2COCCO)c(=O)[nH]1,-,H-1,-,<50 µM
Nc1cn(/C=C2/C[C@H]2CO)c(=O)[nH]c1=O,-,H-1,hybridisation,2.5 µM
O=c1[nH]c(=O)n([C@@H]2O[C@H](CO)[C@@H](O)[C@@H]2O)cc1/C=C/Br,-,P3HR-1,cytopathic effect,0.26 µM
CCCOc1nc(N)nc2c1ncn2/C=C1/C[C@@H]1CO,-,Akata,hybridisation,0.6 µM
O[C@]12CO[C@@H](c3ccc4c(c3)OCO4)[C@@]1(O)CO[C@@H]2c1ccc2c(c1)OCO2,-,Akata,hybridisation,67 µM
Nc1cn(C=C2C[C@H]2CO)c(=O)[nH]c1=O,-,H-1,hybridisation,>50 µM
Nc1nc(N)c2ncn(/C=C3\CC3(CO)CO)c2n1,-,P3HR-1,ELISA,<0.3 µM
CCCCCCSc1nc(N)nc2c1ncn2/C=C1/C[C@@H]1CO,-,Akata,hybridisation,14 µM
Nc1nc2c(ncn2/C=C2\CC2[C@H](O)CO)c(=O)[nH]1,-,Akata,hybridisation,>20 µM
Nc1ncc2c(ncn2/C=C2/CC2CO)n1,-,-,ELISA,>100 µM
O=c1[nH]c(=O)n([C@H]2C[C@H](O)[C@@H](CO)O2)cc1C(O)C(Br)Br,P3HR-1,RAJI,plaque count,>23 µM
CCCCCCCCSc1nc(N)nc2c1ncn2/C=C1/C[C@@H]1CO,-,Akata,hybridisation,>20 µM
Nc1ncnc2c1ncn2[C@@H]1C[C@H](NC=O)[C@@H](O)[C@H]1O,-,HFF,-,>100 µg/mL
Nc1ncnc2c1ncn2[C@H]1C[C@]12C[C@H]2CO,-,-,-,22 µM
COC(c1cn([C@H]2C[C@H](O)[C@@H](CO)O2)c(=O)[nH]c1=O)C(Cl)Cl,P3HR-1,RAJI,plaque count,>28.2 µM
CCCCSc1nc(N)nc2c1ncn2/C=C1/C[C@@H]1CO,-,Akata,hybridisation,2.5 µM
O=c1[nH]c(=O)n([C@H]2C[C@H](O)[C@@H](CO)O2)cc1C(O)C(Br)I,P3HR-1,RAJI,plaque count,79.6 µM
O=c1[nH]c(=O)n([C@H]2CS[C@@H](CO)O2)cc1I,-,H-1,-,>100 µM

The first 2 rows once more:

smiles,strain,cell line,read by,value
Nc1ncnc2ncn(/C=C3/C(F)C3(CO)CO)c12,-,Akata,hybridisation,97.3 µM
Nc1nc(Cl)c2ncn(/C=C3/C[C@H]3CO)c2n1,-,H-1,ELISA,0.7 µM